According to publication PMC7868322, “Rational Design of A Novel Small-Molecule HIV-1 Inactivator Targeting Both gp120 and gp41 of HIV-1” (Frontiers in Pharmacology, 2021):

Test system: CEMx174 5.25 M7 cells
Assay: Cytotoxicity (CCK-8)
Assay type: cell-based
Conditions: 48 h, read-out: CC50, CEMx174 5.25 M7 cell
Protocol: Cell viability was detected following the instructions in the protocol provided in the cell counting kit-8 (CCK-8; Dojindo Molecular Technologies, Gaithersburg, MD, USA) as previously described ([Yang et al., 2018]). Briefly, MT-2 cells and CEMx174 517 5.25 M7 cells (3 × 10^4/well) were incubated with compounds at different concentrations at 37°C for 48 h. Then, the supernatant was discarded, and CCK8 diluted 10 times with fresh medium was added (200 μL/well). After 2–6 h of incubation at 37°C, the absorbance at 450 nm was measured using a microplate reader (Tecan, Männedorf, Switzerland).

Substance: Maraviroc [reference compound]
- CC50: > 50 µM
